According to US9668480B2, “Method for treating plants against fungi resistant to fungicides using carboxamide or thiocarboxamide derivatives” (priority 2012, dated 2017):

System: Botrytis cinerea boscalid-resistant strains with SDHB_P225H, F substitutions
Assay: Sensitivity assay in microtiter plate, resistance factor of boscalid-resistant field strains versus Bo47 WT
Format: cell-based
Procedure: Four to five strains with SDHB_P225H, F substitutions were retained for subsequent sensitivity assays in microtiter plate. IC50 of test compounds were determined and resistance factors (RF) calculated as the ratio of IC50 mutant/IC50 WT (Bo47). […] Strains giving a RF below 10 were considered sensitive, moderately resistant when RF was comprised between 10 and 50, resistant above 50.

[1] = mutation P225F, BOTRCI strain 08BC1554
[2] = mutation P225F, BOTRCI strain 08BC1557
[3] = mutation P225F, BOTRCI strain 08BC1558
[4] = mutation P225F, BOTRCI strain 09BC2615
[5] = mutation P225H, BOTRCI strain 09BC2640
[6] = mutation P225H, BOTRCI strain 09BC2648
[7] = mutation P225H, BOTRCI strain 09BC2649
[8] = mutation P225H, BOTRCI strain 09BC2652

Structure (SMILES)	resistance factor (RF), ratio of IC50 mutant/IC50 WT (Bo47) [1]	resistance factor (RF), ratio of IC50 mutant/IC50 WT (Bo47) [2]	resistance factor (RF), ratio of IC50 mutant/IC50 WT (Bo47) [3]	resistance factor (RF), ratio of IC50 mutant/IC50 WT (Bo47) [4]	resistance factor (RF), ratio of IC50 mutant/IC50 WT (Bo47) [5]	resistance factor (RF), ratio of IC50 mutant/IC50 WT (Bo47) [6]	resistance factor (RF), ratio of IC50 mutant/IC50 WT (Bo47) [7]	resistance factor (RF), ratio of IC50 mutant/IC50 WT (Bo47) [8]
O=C(Nc1ccccc1-c1ccc(Cl)cc1)c1cccnc1Cl [Boscalid, reference compound]	>171	>171	>171	>171	>171	>171	>171	>171
CC(C)c1ccccc1CN(C(=O)c1c(C(F)F)nn(C)c1F)C1CC1 [Compound A1, N-cyclopropyl-3-(difluoromethyl)-5-fluoro-N-(2-isopropylbenzyl)-1-methyl-1H-pyrazole-4-carboxamide]	2.4	1.8	3.0	1.6	1.3	0.9	1.1	1.1
CC(C)c1ccc(Cl)cc1CN(C(=O)c1c(C(F)F)nn(C)c1F)C1CC1 [Compound A5, N-(5-chloro-2-isopropylbenzyl)-N-cyclopropyl-3-(difluoromethyl)-5-fluoro-1-methyl-1H-pyrazole-4-carboxamide]	1.4	1.3	1.6	0.8	1.3	0.8	0.9	1.0
Cn1nc(C(F)F)c(C(=O)N(Cc2c(C(F)(F)F)ccc(Cl)c2F)C2CC2)c1F [Compound A18, N-[3-chloro-2-fluoro-6-(trifluoromethyl)benzyl]-N-cyclopropyl-3-(difluoromethyl)-5-fluoro-1-methyl-1H-pyrazole-4-carboxamide]	0.4	0.3	0.5	0.4	0.4	0.4	0.5	0.3
